Anti-infective test results gathered from many reports (values: NIAID ChemDB through PubChem).

All rows: toxicity to cultured cells; cells: VERO; endpoint: CC50

An empty or dashed field is not shown.

smiles	method	result
Nc1nc2c(ncn2COC(CO)CO)c(=O)[nH]1		450 µM
CCCCC1C(=O)N(c2ccccc2)N(c2ccc(O)cc2)C1=O	MTT	>200 µM
Cc1cc(C)c2cc(C(=O)N[C@@H]3CC[Si](C)(C)C3)[nH]c2c1	visual reading / absorbance	>64 µg/mL
Fc1cccc(Sc2cc3ccccc3[n+](CCCCCc3ccccc3)c2)c1	neutral red	>10 µg/mL
CN[C@@H]1[C@H](O[C@@H]2OC[C@@H](O)[C@H](O)[C@H]2O)[C@@H](O)[C@H](O[C@H]2c3cc(C)c(C(=O)N[C@H](C)C(=O)O)c(O)c3-c3c(cc4c(c3O)C(=O)c3cc(OC)cc(O)c3C4=O)[C@@H]2O)O[C@@H]1C		>100 µg/mL
CCOC(=O)Nc1cc(N[C@@H](C)[C@H](O)c2ccccc2)c(N)c(N)n1		>200 µg/mL
Nc1nccc2nn([C@H]3C[C@H](O)[C@@H](CO)O3)nc12	trypan blue	>396 µM
O=C(Cc1ccccc1Nc1c(Cl)cccc1Cl)N/N=C(\c1ccccc1)c1ccc(Br)cc1		>18.07 µM
O=c1[nH]c(=O)n([C@H]2O[C@@H](CO)[C@H](O)C2(F)F)cc1Br		>100 µM
FC(F)(F)c1cccc(Sc2cc3ccccc3[n+](CCCCCc3ccccc3)c2)c1	neutral red	>10 µg/mL
CC(C1=NNC(=Nc2cccnc2)SC1)N1C(=O)c2ccccc2C1=O		557 µg/mL
Cc1ccccc1Sc1cc2ccccc2[n+](CCCCCc2ccccc2)c1	neutral red	>10 µg/mL
Cc1ccc(N=C2NN=C(C(C)N3C(=O)c4ccccc4C3=O)CS2)cc1		192 µg/mL
Nc1ncnc2c1ncn2[C@@H]1O[C@H](CO)[C@@H](O)[C@@H]1O		32 µg/mL
Nc1ccc(S(=O)(=O)c2ccc(NC(=O)NC34CC5CC(CC(C5)C3)C4)cc2)cc1	MTT	144 µg/mL
O=C(Cc1ccccc1Nc1c(Cl)cccc1Cl)N/N=C/c1ccccc1Cl		>23.1 µM
CSc1nsc(-c2ccncc2)c1C#N		2.5 µM
Nc1nc(=O)n([C@H]2O[C@@H](CO)[C@H](O)C2(F)F)cc1Br		>100 µM
CSc1nsc(-c2cccc3ccccc23)c1C#N		4 µM
Nc1nc2c(ncn2COC(CO)COP(=O)(O)O)c(=O)[nH]1		700 µM
CC(C)CC(C1=NNC(=Nc2ccccc2)SC1)N1C(=O)c2ccccc2C1=O		192 µg/mL
COc1ccc(Cc2c(C)c(C#N)c3[nH]c4ccccc4n3c2=O)cc1		>64 µg/mL
CN(C)CCc1c2c(nc3ccccc13)C(=O)c1cccnc1C2=O		1.4 µg/mL
Oc1cccc(Sc2cc3ccccc3[n+](CCCCCC3CCCCC3)c2)c1	neutral red	>10 µg/mL
O=C1c2cccnc2-c2nccc3c2c1nc1ccccc13		<0.04 µg/mL
CC(=O)OCCOCn1c(-c2ccccc2)c(-c2ccccc2)c([N+](=O)[O-])c1-c1ccccc1		>300 µM
Fc1ccccc1Sc1cc2ccccc2[n+](CCCCCc2ccccc2)c1	neutral red	>10 µg/mL
CCn1cc(C(=O)O)c(=O)c2cc(F)c(N3CCN(C(=O)Cc4ccccc4Nc4c(Cl)cccc4Cl)C(C)C3)c(F)c21		>15.88 µM
CSc1nsc(-c2ccccn2)c1C#N		50 µM
CN(C)c1ccc(/C=N/NC(=O)Cc2ccccc2Nc2c(Cl)cccc2Cl)cc1		>22.65 µM
CN(C)CCc1c2c(nc3ccccc13)C(=O)c1ccccc1C2=O		3.5 µg/mL
FC(F)(F)c1ccccc1Sc1cc2ccccc2[n+](CCCCCc2ccccc2)c1	neutral red	>10 µg/mL
CCc1cn([C@@H]2O[C@H](CO)[C@@H](O)[C@@H]2F)c(=O)[nH]c1=O		>200 µM
O=c1[nH]c(=O)n([C@H]2O[C@@H](CO)[C@H](O)C2(F)F)cc1Cl		>100 µM
OC[C@H]1O[C@@H](n2nnc3ccnc(Cl)c32)C[C@@H]1O	trypan blue	>368 µM
CCN(CC)CCCOc1c2occc2cc2ccc(=O)oc12		27.5 µg/mL
C=C1CC[C@@H]2[C@](C)(CCC3[C@@]4(C)[C@H](O)CCC(C)(C)[C@@H]4CC[C@]32C)[C@H]1CN=C(N)N		135 µM
CC(C1=NNC(=Nc2ccccc2F)SC1)N1C(=O)c2ccccc2C1=O		21.38 µg/mL
O=c1[nH]c(=O)n([C@H]2O[C@@H](CO)[C@H](O)C2(F)F)cc1I		>100 µM
Nc1nccc2c1nnn2[C@@H]1O[C@H](CO)[C@@H](O)[C@H]1O	trypan blue	>398 µM
FC(F)(F)c1ccccc1Sc1cc2ccccc2[n+](CCCCCC2CCCCC2)c1	neutral red	>10 µg/mL
OC[C@H]1O[C@@H](n2nnc3c(Cl)nccc32)C[C@@H]1O	trypan blue	>368 µM
Nc1nc2c(ncn2C[C@H]2CC[C@H](P(=O)(O)O)O2)c(=O)[nH]1		>100 µg/mL
OCCOCn1c(-c2ccccc2)c(Br)c(-c2ccccc2)c1-c1ccccc1		15 µM
COc1c(N2C[C@H]3CCCN(C(=O)Cn4cc(CN5C(=O)/C(=N\NC(N)=S)C6(F)C=CC=CC56)nn4)[C@H]3C2)c(F)cc2c1N(C1CC1)CC(C(=O)O)C2=O	MTT	8 µg/mL
CCOC(=O)c1c(Cl)c(-c2ccccc2)n(COCCOC(C)=O)c1C		82 µM
CC(C1=NNC(=Nc2ccccc2)SC1)N1C(=O)c2ccc(Br)cc2C1=O		192 µg/mL
CCOC(=O)c1c([N+](=O)[O-])c(-c2ccccc2)n(COCCOC(C)=O)c1C		169 µM
Nc1nc2c(ncn2C[C@H]2CS[C@H](P(=O)(O)O)O2)c(=O)[nH]1		>100 µg/mL

CCn: concentration that lowers growth or viability of the cells by n%. Lines come from different laboratories, so protocols vary.